The source of these data is ChEMBL document CHEMBL5346934 (J Med Chem, 2023).

The test relates to Cowpox virus. As to the kind of experiment: Antiviral activity against Cowpox virus Brighton infected in Vero cells measured after 4 days by colorimetric assay. The settings on record: strain Brighton. It counts as functional, organism-based.

Each structure is given as a SMILES string.

With `O=c1[nH]c(=O)n([C@H]2C[C@H](O)[C@@H](CO)S2)cc1I`, the half-maximal effective concentration (EC50) – broadly, the concentration at which the effect is half-maximal – came out at 100 nM. This lies in the sub-micromolar range.
